Laboratory results reported in the supplement of paper PMC9931576.
Human monoclonal antibodies against the spike receptor-binding domain (heavy:light variable regions). IC50 against pseudoviruses bearing the spike of naturally observed variants; lower = stronger; >10 µg/ml means not reached at the top dose. No active / inactive call. The stated detection limit is 0.0005 µg/ml; values near or below 0.001 µg/ml lie at the floor of the assay.

B1: BD55-6202 (protein)
chain 1: QVQLVESGGGVVQPGRSLRLSCAASGFTFSTYGMHWVRQAPGKGLEWVALIWNDGSKTYYADSVKGRLTISRDNSKNTVYLQMNSLRAEDTAVYYCARDSQCSGGNCYFDYNWFDAWGQGTLVTVSS
chain 2: EIVLTQSPATLSLSPGERATLSCRASQSVSRHLAWYQQKPGQAPRLLIYDASNRATGIPARFSGSGSGTDFTLTISSLEPEDFAVYYCQQRYTWPPAYTFGQGTKLQIK
B2: BD55-1179 (protein)
chain 1: QVHLQESGPRLVRPSQTLSLTCTVSGGSVSSNGHYWTWMRQHPGKGLEWIGNIYYSGSTHYNPSLKSRVTISVDTSKDEFSLKVTSMTVADTAVYFCARELVATGQFHYWGQGILVSVSS
chain 2: DIQMTQSPSSLSVSVGDRVTITCQASQDITNHLNWYQQKAGKAPNLLIYDASDLETGVPSRFSGRGSGTEFTFTISSLQPEDIATYYCQQFDNLPYTFGQGTKLEMK
B3: BD55-6204 (protein)
chain 1: QITLKESGPTLVKPTQTLTLTCTFSGFSLTTSGVGVGWIRQPPGKALEWLALIYGDDDKRYSPSLKSRLTITKDTSKNQVVLIMTNMDPVDTATYYCAHRPAGGYDVLTGYYRVVVPLFDYWGQGTLVTVSS
chain 2: QSVLTQPPSASGIPGQRVTISCSGSSSNIGGNPVDWYQQLPGTAPKLLNYNDNQRPLGVPDRFSGSKSGTSASLAISGLQSEDEAEYYCAAWDDSLNGPVFGGGTKLTVL
B4: BD55-6205 (protein)
chain 1: DVQLVESGGGLVQPGGSLRLSCAASGFTFSSYALHWVRQAPGKGLEYVSSITRDGVGTFYADSLKGRFTISRDNSKNTVYLQMGSLRADDMAVYYCAREARDQIDVVLDFWGQGTPVTVSS
chain 2: DIQMTQSPSSLSASVGDRVTITCRASQTISRYLNWYQHKPGKVPKLLIYAASRLQSGVPSRFSGSGSGTDFTLTISSLQPEDFATYYCQQSYTSPEYTFGQGTKLEIK
B5: BD55-6206 (protein)
chain 1: QLQLQESGPGLVKPSETLSLTCTVSGGSISSSSYYWGWIRQPPGKGLEWIGSIYYSGSTYYNPSLKSRVTISVDTSKNQFSLKLSSVTAADTAVYSCARHLGGDREERLASPWYDYYTGGHFDLWGRGTLVTVSS
chain 2: QSVLTQPPSVSGAPGQRVTISCTGSSSNIGAGYDVHWYQQLPGTAPKLLIYGNSNRPSGVPDRLSGSKSGTSASLAITGLQAEDEADYYCQSYDSSLSGWVFGGGTKLTVL
B6: BD55-6211 (protein)
chain 1: QVQLVQSGAEVKKPGASVKVSCKASEYSFSTYDINWVRQATGQGLEWMGWMNPTSGDAGYAHKFQGRVILTRETSIRTAYMELSSLTSEDTAVYYCATGPRAMIGFDNWLDPWGQGTLVTVSS
chain 2: DIQMTQSPSSLSASVGDRVTITCRASQSISSYLNWYRQIPGKAPKLLIYAASTLQRGVPSSFSGSGSGTDFTLTINNLQPEDFAIYYCQQSYSTPYTFGQGTKLEIK
B7: BD55-6213 (protein)
chain 1: QVQLQQWGAGLLKPSETLSLTCAVSGGSFSGYYWSWIRQSPGKGLEWIGEINHSGSTNYNPSLKTRVTISVDRSKNQFSLELSSVTAADTAVYFCARVGRGYSGYDYYYYYFMDVWGKGNTVTVSS
chain 2: DNQMTQSPSSLSASVGDRVTITCRASQNLTRNLNWYQQKTGEAPKLLIYAASSLQSGVPSRFSGSGSGTDFTLTISSLQPEDFATYYCQQSYSPNTFGQGTKLEI
B8: BD55-6216 (protein)
chain 1: QEQLVQSGAEVRKPGASVKVSCKASGYAFINYEINWVRQSTGQGLEWLGRMNPSSGSTDYAHKFQGRVFMTSDTSVNTAYMELTSLRSEDTAVYYCARESTGGYYYYYDMDVWGQGTTVIVSS
chain 2: DIQMTQSPSALSASVGDRVTITCRASQSISTSVNWYQQKPGKAPKFLIYDGSTLQSGVPSRFSGSGSGTEFTLTISSLQPEDFATYFCQQSYSFPPTFGPGTKVDIK
B9: BD55-6227 (protein)
chain 1: QVQLVQSGAEVRKPGASVKVSCKASGYSFTNYAMSWVRQAPGQGLEWMGWIISNNGDTDYAPKLQDRVTMTTDTSTSTGYMELTSLRSDDTAVYYCVRAAGHYYDGFYFDLWGRGTLVTVSS
chain 2: SYELTQPPSVSVSPGQTARITCSADPLPRQYSYWYQQKPGQAPVLVIYKDTQRPSGVPERFSASTSGTKVTLTISGVQAEDEADYYCQSADSSGAVFGGGTKLVVL
B10: BD55-1192 (protein)
chain 1: QVQLVESGGGVVQPGRSLRLSCAASGFTPILYAMHWVRQAPGKGLEWVALISFDGINRYYADSVKGRFTISRDSSKNTLYLLMNSLRAEDTAVYYCAKDRRGGNVITPPYGMDVWGQGTTVTVSS
chain 2: DIVMTQTPLSLSVTPGQPASISCKSSQSLLHIDGKTYLSWYLQKPGQSPHLLIYDGVNRFSGVPDKFSGSGSGTDFTLKISRVEAEDVGFYYCMQSIQLPLTFGGGTKVEIK
B11: BD55-6236 (protein)
chain 1: QVQLQESGPGLVRPSETLSLTCTVSGGSINSDHYYWGWIRQSPGKGLEWIGSIFYSGTTYYNPSLDSRVTLSLDTSKNHFSLKLTSVTAADSAVYYCARDTGPLVYCGGDCLLVPNFYFGMDVWGQGTTVTVSS
chain 2: YVLTQPPSVSVAPGKTARLSCGGSNIGTRSVHWYQQKPGQAPVLVVYDDSHRPSGIPERFSGSNSGNTATLTISRVEAGDEADYYCQVWESMSGRPNWVFGGGTKVTVL
B12: BD55-6240 (protein)
chain 1: QVQLQESGPGLVKPSQTLSLTCTVSGGSISSRSYDWSWLRQPAGKGLEWIGRIYGSGGSNHNPSLKSRVTISVDTSKNQFSLKLSSVTAADTAVYYCARHSGYDPEFDYWGQGTLVTVSS
chain 2: DIQMTQSPSTLSASVGDRVTITCRASQSISRWLAWYQQKPGKAPKLLIYKASILESGVPSRFSGSGSGTDFTLTISSLQPDDFATYYCQQYNSYSTFGPGTKVDMK

What follows are binders tested against SARS-CoV-2 Omicron BA.1 spike pseudovirus (assay: pseudovirus neutralization IC50; higher = weaker neutralization).
Experimental: (§1)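 Single-round VSV luciferase pseudovirus mixed with antibody dilutions for 1 h and put on Huh-7 cells for about a day; IC50 from the dose curve.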

| Binder | pseudovirus neutralization IC50 [µg/mL] |
| --- | --- |
| B1 | > 10 |
| B2 | > 10 |
| B3 | > 10 |
| B4 | > 10 |
| B5 | 0.299 |
| B6 | > 10 |
| B7 | 4.52 |
| B8 | > 10 |
| B9 | > 10 |
| B10 | 0.543 |
| B11 | > 10 |
| B12 | > 10 |

These binders were tested against SARS-CoV-2 Omicron BA.2 spike pseudovirus in the same assay as above.
Experimental: as §1

| Binder | pseudovirus neutralization IC50 [µg/mL] |
| --- | --- |
| B1 | > 10 |
| B2 | > 10 |
| B3 | > 10 |
| B4 | > 10 |
| B5 | > 10 |
| B6 | > 10 |
| B7 | 4.77 |
| B8 | > 10 |
| B9 | > 10 |
| B10 | 0.216 |
| B11 | > 10 |
| B12 | > 10 |

Each binder was assayed against SARS-CoV-2 Omicron BA.2.75 spike pseudovirus in the same assay as above.
Experimental: as §1

| Binder | pseudovirus neutralization IC50 [µg/mL] |
| --- | --- |
| B1 | > 10 |
| B2 | > 10 |
| B3 | > 10 |
| B4 | > 10 |
| B5 | > 10 |
| B6 | > 10 |
| B7 | 5.13 |
| B8 | > 10 |
| B9 | > 10 |
| B10 | > 10 |
| B11 | > 10 |
| B12 | > 10 |

What follows are binders tested against SARS-CoV-2 Omicron BA.5 spike pseudovirus in the same assay as above.
Experimental: as §1

| Binder | pseudovirus neutralization IC50 [µg/mL] |
| --- | --- |
| B1 | > 10 |
| B2 | > 10 |
| B3 | > 10 |
| B4 | > 10 |
| B5 | > 10 |
| B6 | > 10 |
| B7 | 2.42 |
| B8 | > 10 |
| B9 | > 10 |
| B10 | 4.1 |
| B11 | > 10 |
| B12 | > 10 |

These binders were tested against SARS-CoV-2 Omicron BQ.1.1 spike pseudovirus in the same assay as above.
Experimental: as §1

| Binder | pseudovirus neutralization IC50 [µg/mL] |
| --- | --- |
| B1 | > 10 |
| B2 | > 10 |
| B3 | > 10 |
| B4 | > 10 |
| B5 | > 10 |
| B6 | > 10 |
| B7 | > 10 |
| B8 | > 10 |
| B9 | > 10 |
| B10 | 5.12 |
| B11 | > 10 |
| B12 | > 10 |

What follows are binders tested against SARS-CoV-2 Omicron XBB spike pseudovirus in the same assay as above.
Experimental: as §1

| Binder | pseudovirus neutralization IC50 [µg/mL] |
| --- | --- |
| B1 | > 10 |
| B2 | > 10 |
| B3 | > 10 |
| B4 | > 10 |
| B5 | > 10 |
| B6 | > 10 |
| B7 | > 10 |
| B8 | > 10 |
| B9 | > 10 |
| B10 | > 10 |
| B11 | > 10 |
| B12 | > 10 |

The binders below were run against SARS-CoV-2 early D614G spike pseudovirus in the same assay as above.
Experimental: as §1

| Binder | pseudovirus neutralization IC50 [µg/mL] |
| --- | --- |
| B1 | > 10 |
| B2 | > 10 |
| B3 | > 10 |
| B4 | > 10 |
| B5 | 0.0154 |
| B6 | 5.87 |
| B7 | 2.06 |
| B8 | > 10 |
| B9 | > 10 |
| B10 | 0.693 |
| B11 | > 10 |
| B12 | > 10 |
